A mixed list of measured activities; the numbers were collected in NIAID ChemDB.

Shared fields: growth or infection tests; agent: HIV-1; endpoint: inhibition

Inhibition is in % at the dose shown (toxicity tests: loss of growth or viability).

smiles | dose | setting | cell line | method | strain | result
Cc1cc(=O)c2c(O)c3c(O)cc(O)c4c5c(O)cc(O)c6c(O)c7c(=O)cc(C)c8c1c2c(c34)c(c65)c78 | 1 µg/mL | 14 d | CEM | ELISA |  | 97%
C=C(C)[C@@H]1CC[C@]2(C(=O)O)CC[C@]3(C)C(CCC4[C@@]5(C)CC[C@H](OC(=O)CN(OC)C6O[C@@H](CO)[C@H](O)[C@@H](O)[C@@H]6O)C(C)(C)C5CC[C@]43C)C12 | 10 µM |  |  | cytopathic effect | IIIB | 1%
CC(C)c1cnc(C2C=C(c3ccc([N+](=O)[O-])cc3)N=C(N)S2)cn1 | 10 µg/mL |  | TZM-bl | p24 / ELISA / antigen | NL4-3 | 94%
CC1(C)CC[C@]2(C(=O)NCCCCCC(=O)O)CC[C@]3(C)C(=CC[C@@H]4[C@@]5(C)C[C@@H](O)[C@H](O)C(C)(C)[C@@H]5CC[C@]43C)[C@@H]2C1 | 10 µM |  | MT-2 | p24 / ELISA | pNL4-3 | -46.4%
CC(C)c1cc(=O)oc2c(CN3CCCCC3)c(O)c3c(c12)OC(C)(C)C=C3 | 50 µM |  | MT-4 | RT activity / visual reading | 899A | 10%
CC1/C=C/C=C/C=C/C=C/C=C/C=C/C=C/C(OC2OC(C)C(O)C(N)C2O)CC(O)C(C(=O)O)C(O)CC(=O)CC(O)CC(O)CC(O)CC(=O)CCCC(=O)CC(=O)OC1 | 0.1 µg/mL |  | H9 | p24 / antigen | IIIB | 14%
C=C1[C@H](n2cnc3c(N)ncnc32)O[C@@H]1CO | 3 µg/mL |  | MT-4 | antigen |  | 90%
CCCCCCCCCC(O)CC(=O)O | 70.8 µg/mL |  | HeLa37 | antigen |  | 90%
CC(=O)N[C@@H](CCC(N)=O)C(=O)N[C@@H](C)C(=O)N[C@@H](CC(C)C)[C@@H](O)CC(=O)N[C@H](C(N)=O)C(C)C | 200 µM |  | MT-4 | ELISA / antigen | IIIB | 40%
C[C@H]1[C@H](O)[C@@H](C)/C=C/C=C/C=C/C=C/C=C/C=C/C=C/[C@H](O[C@@H]2O[C@H](C)[C@@H](O)[C@H](N)[C@@H]2O)C[C@@H]2O[C@](O)(C[C@@H](O)C[C@@H](O)CC[C@H](O)[C@@H](O)C[C@@H](O)CC(=O)O[C@H]1C)C[C@H](O)[C@H]2C(=O)O | 7 µM |  | PBMC | p24 / RT activity | 93IN101 CLADE C R5 (NSI) | 90%
CC1(C)[C@@H](O[C@H]2O[C@H](C(=O)O)[C@@H](O)[C@H](O)[C@H]2O[C@@H]2O[C@H](C(=O)O)[C@@H](O)[C@H](O)[C@H]2O)CC[C@]2(C)[C@H]3C(=O)C=C4[C@@H]5C[C@@](C)(C(=O)O)CC[C@]5(C)CC[C@@]4(C)[C@]3(C)CC[C@@H]12 | 600 µM |  | MT-4 | antigen | IIIB | 98.6%
CCCCCCCCCCCCCCCCOP(=O)(OC[C@H]1OC(O)[C@@H](O)[C@@H](O)[C@@H]1O)OC[C@H]1O[C@@H](n2cc(C)c(=O)[nH]c2=O)C[C@@H]1N=[N+]=[N-] | 1 µM | 7 d | PBL | RT activity | LAV-Bru | 47%
O=c1[nH]cnc2c1ncn2[C@H]1C[C@@H](CO)O1 | 10 µg/mL |  | MT-4 | antigen |  | >99.9%
Nc1ccn([C@H]2C=C[C@@H](CO)O2)c(=O)n1 | 1 µM |  | MT-2 | cytopathic effect / trypan blue | LAV | 99.5%
C[C@@H]1CN(C(=O)c2ccccc2)CCN1C(=O)C(=O)c1c[nH]c2c(F)ccc(F)c12 | 10 µM |  | HeLa + HELA CD4+/CCR5 | luciferase |  | >98%
Nc1nc(=O)n([C@H]2CC[C@@H](CO)O2)cc1F | 0.4 µM |  | MT-2 | cytopathic effect / MTT | IIIB | 23%
COC(=O)CCCCCNC(=O)[C@]12CCC(C)(C)C[C@H]1C1=CC[C@@H]3[C@@]4(C)C[C@@H](O)[C@H](O)C(C)(C)[C@@H]4CC[C@@]3(C)[C@]1(C)CC2 | 10 µM |  | MT-2 | p24 / ELISA | pNL4-3 | 30.4%
CCOc1cccc2[nH]cc(C(=O)C(=O)N3CCN(C(=O)c4ccccc4)CC3)c12 | 10 µM |  | HeLa + HELA CD4+/CCR5 | luciferase |  | >98%
Cc1cn([C@H]2C[C@H](N=[N+]=[N-])C([C@H](O)CO)O2)c(=O)[nH]c1=O | 200 µg/mL |  | MT-4 | cytopathic effect / trypan blue | IIIB | 0%
COc1ccc(C2=CC(c3cnc(C(C)C)cn3)SC(N)=N2)cc1 | 10 µg/mL |  | TZM-bl | p24 / ELISA / antigen | NL4-3 | 29%
O=c1[nH]c(=O)n([C@@H]2C[C@H](F)[C@@H](CO)O2)cc1CN1CCCCC1 | 100 µM |  | MT-4 | ELISA | IIIB | 0%
COc1ccc(-c2cc3oc(=O)cc(C(C)C)c3c3c2C=CC(C)(C)O3)cc1 | 50 µM |  | MT-4 | RT activity / visual reading | 899A | 25%
CCCCCCCCCCCCCCCCOP(=O)(OCCO[C@@H]1O[C@H](CO)[C@@H](O)[C@H](O)[C@@H]1O)OC[C@H]1O[C@@H](n2cc(C)c(=O)[nH]c2=O)C[C@@H]1N=[N+]=[N-] | 1 µM | 22 d | CEM | RT activity | LAV-Bru | 0%
CC1(C)CC[C@]2(C(=O)NCCCC(=O)NCC(=O)O)CC[C@]3(C)C(=CC[C@@H]4[C@@]5(C)C[C@@H](O)[C@H](O)C(C)(C)[C@@H]5CC[C@]43C)[C@@H]2C1 | 25 µM |  | MT-2 | p24 / ELISA | pNL4-3 | -43.3%
CC(C)c1cnc(C2C=C(c3cccc(F)c3)N=C(N)S2)cn1 | 10 µg/mL |  | TZM-bl | p24 / ELISA / antigen | NL4-3 | 74%
COC(=O)CCCNC(=O)[C@]12CCC(C)(C)C[C@H]1C1=CC[C@@H]3[C@@]4(C)C[C@@H](O)[C@H](O)C(C)(C)[C@@H]4CC[C@@]3(C)[C@]1(C)CC2 | 25 µM |  | MT-2 | p24 / ELISA | pNL4-3 | 88%
CCCCSC1=NC(c2c(O)c3c(c4c(C(C)C)cc(=O)oc24)OC(C)(C)C=C3)C=NN1 | 50 µM |  | MT-4 | RT activity / visual reading | 899A | 16%
O=c1[nH]c(=O)n([C@@H]2C[C@H](F)[C@@H](CO)O2)cc1CN1CCN(Cc2ccccc2)CC1 | 100 µM |  | MT-4 | ELISA | IIIB | 0%
CC(C)c1cnc(C2C=C(c3cccc(O)c3)N=C(N)S2)cn1 | 10 µg/mL |  | TZM-bl | p24 / ELISA / antigen | NL4-3 | 51%
COc1ccccc1/C=C/C(=O)c1ccccc1O | 10 µM |  | TZM-bl | luciferase |  | 0%
O=C(Nc1ncnc2c1ncn2[C@@H]1O[C@H](CO)[C@@H](OC(=O)c2ccccc2)[C@H]1OC(=O)c1ccccc1)c1ccccc1 | 10 µM |  | HeLaP4 | β-galactosidase | NL4-3 | 100%
C=C(C)[C@@H]1CC[C@]2(C(=O)O)CC[C@]3(C)C(CCC4[C@@]5(C)CC[C@H](OC(=O)CN(OC)C6O[C@H](CO)[C@@H](O)[C@H](O)[C@H]6F)C(C)(C)C5CC[C@]43C)C12 | 10 µM |  |  | cytopathic effect | IIIB | 17%
Nc1ccn([C@H]2C=C[C@@H](CO)O2)c(=O)n1 | 0.5 µM |  | MT-4 | antigen | IIIB | 85%
Nc1ncnc2c1ncn2[C@@H]1O[C@H](CO)[C@@H]1O | 100 µg/mL |  | MT-4 | antigen |  | >99.9%
C=C(C)[C@@H]1CC[C@]2(C(=O)O)CC[C@]3(C)C(CCC4[C@@]5(C)CC[C@H](OC(=O)CN(OC)C6O[C@H](C(=O)O)[C@H](O)[C@H](O)[C@H]6O)C(C)(C)C5CC[C@]43C)C12 | 10 µM |  |  | cytopathic effect | IIIB | 1%
Nc1ncnc2c1ncn2[C@@H]1O[C@H](CO)[C@H]1F | 3 µg/mL |  | MT-4 | antigen |  | <10%
CC(=O)Oc1cccc(C(=O)N2CCN(C(=O)C(=O)c3c[nH]c4cccc(Cl)c34)CC2)c1 | 10 µM |  | HeLa + HELA CD4+/CCR5 | luciferase |  | >98%
CO[C@H]1C[C@@H]2CC[C@@H](C)[C@@](O)(O2)C(=O)C(=O)N2CCCC[C@H]2C(=O)O[C@H]([C@H](C)C[C@@H]2CC[C@@H](O)[C@H](OC)C2)CC(=O)[C@H](C)/C=C(\C)[C@@H](O)[C@@H](OC)C(=O)[C@H](C)C[C@H](C)/C=C/C=C/C=C/1C | 0.001 µM |  | PBMC | p24 | IIIB X4 | 36%
COc1ccc(F)c2c(C(=O)C(=O)N3CCN(C(=O)c4ccccc4)C[C@H]3C)c[nH]c12 | 10 µM |  | HeLa + HELA CD4+/CCR5 | luciferase |  | >98%
CCCCCCCCCCCCCCCC(=O)OC[C@H]1O[C@@H](n2cnc3c(N)ncnc32)[C@@H]1CO | 3 µg/mL |  | MT-4 | antigen |  | 93%
CCCC1CN(C(=O)c2ccccc2)CCN1C(=O)C(=O)c1c[nH]c2c(C(=O)OC)cccc12 | 10 µM |  | HeLa + HELA CD4+/CCR5 | luciferase |  | 95%
O=c1[nH]c(=O)n([C@@H]2C[C@H](F)[C@@H](CO)O2)cc1CN1CCOCC1 | 100 µM |  | MT-4 | ELISA | IIIB | 0%
C=C(C)[C@@H]1CC[C@]2(C(=O)O)CC[C@]3(C)C(CCC4[C@@]5(C)CC[C@H](OC(=O)CN(OC)[C@H]6O[C@H](CO)[C@@H](O)[C@H](O)[C@@H]6NC(C)=O)C(C)(C)C5CC[C@]43C)C12 | 10 µM |  |  | cytopathic effect | IIIB | 4%
CCc1nc2cc3ccccc3cc2cc1C(=O)N[C@@H](C/C=C/C[C@H](NC(=O)c1cc2cc3ccccc3cc2nc1CC)C(=O)N1CCC[C@H]1C(=O)N[C@@H](Cc1ccccc1)C(=O)NCCCN)C(=O)N1CCC[C@H]1C(=O)N[C@@H](Cc1ccccc1)C(=O)NCCCN | 40 µM | pseudotyped | TZM-bl + HEK293T | luciferase |  | >90%
Cc1cc(C#N)cc(C)c1Oc1nc(Nc2ccc(C#N)cc2)nc(N)c1Br | 10 µg/mL |  | TZM-bl | p24 / ELISA / antigen | NL4-3 | 100%
O=C(C(=O)N1CCN(C(=O)c2ccccc2)CC1)c1c[nH]c2cc(F)cc(F)c12 | 10 µM |  | HeLa + HELA CD4+/CCR5 | luciferase |  | >98%
Cc1cn([C@H]2C[C@H](N=[N+]=[N-])[C@@H]([C@@H](C)O)O2)c(=O)[nH]c1=O | 200 µg/mL |  | MT-4 | cytopathic effect / trypan blue | IIIB | 0%
COc1cccc(C2=CC(c3cnc(C(C)C)cn3)SC(N)=N2)c1 | 10 µg/mL |  | TZM-bl | p24 / ELISA / antigen | NL4-3 | 24%
C[C@H](NC(=O)[C@]12CCC(C)(C)C[C@H]1C1=CC[C@@H]3[C@@]4(C)C[C@@H](O)[C@H](O)C(C)(C)[C@@H]4CC[C@@]3(C)[C@]1(C)CC2)C(=O)O | 25 µM |  | MT-2 | p24 / ELISA | pNL4-3 | 39.1%
CN1CCN(Cc2cn([C@H]3C[C@H](F)[C@@H](CO)O3)c(=O)[nH]c2=O)CC1 | 100 µM |  | MT-4 | ELISA | IIIB | 0%
C[C@H](NC(=O)CCCNC(=O)[C@]12CCC(C)(C)C[C@H]1C1=CC[C@@H]3[C@@]4(C)C[C@@H](O)[C@H](O)C(C)(C)[C@@H]4CC[C@@]3(C)[C@]1(C)CC2)C(=O)O | 10 µM |  | MT-2 | p24 / ELISA | pNL4-3 | 16.3%
Cc1cn([C@H]2C[C@H](N=[N+]=[N-])[C@@H](COP(=O)(O)OCCO[C@H]3O[C@H](CO)[C@@H](O)[C@H](O)[C@@H]3O)O2)c(=O)[nH]c1=O | 5 µM | 15 d | CEM | RT activity | LAV-Bru | 96%
Nc1ccn([C@H]2CC[C@@H](CO)O2)c(=O)n1 | 0.4 µM |  | MT-2 | cytopathic effect / MTT | IIIB | 25%
CC(=O)N[C@@H](CCC(N)=O)C(=O)N[C@@H](C)C(=O)N[C@@H](CC(C)C)[C@@H](O)CC(=O)N[C@H](C(=O)N[C@H](C(N)=O)C(C)C)C(C)C | 200 µM |  | MT-4 | ELISA / antigen | IIIB | 20%

For reference, 8 entries again:

smiles,dose,setting,cell line,method,strain,result
CCc1nc2cc3ccccc3cc2cc1C(=O)N[C@@H](C/C=C/C[C@H](NC(=O)c1cc2cc3ccccc3cc2nc1CC)C(=O)N1CCC[C@H]1C(=O)N[C@@H](Cc1ccccc1)C(=O)NCCCN)C(=O)N1CCC[C@H]1C(=O)N[C@@H](Cc1ccccc1)C(=O)NCCCN,40 µM,pseudotyped,TZM-bl + HEK293T,luciferase,,>90%
C=C(C)[C@@H]1CC[C@]2(C(=O)O)CC[C@]3(C)C(CCC4[C@@]5(C)CC[C@H](OC(=O)CN(OC)C6O[C@H](CO)[C@@H](O)[C@H](O)[C@H]6F)C(C)(C)C5CC[C@]43C)C12,10 µM,,,cytopathic effect,IIIB,17%
C=C1[C@H](n2cnc3c(N)ncnc32)O[C@@H]1CO,3 µg/mL,,MT-4,antigen,,90%
Nc1nc(=O)n([C@H]2CC[C@@H](CO)O2)cc1F,0.4 µM,,MT-2,cytopathic effect / MTT,IIIB,23%
Nc1ncnc2c1ncn2[C@@H]1O[C@H](CO)[C@@H]1O,100 µg/mL,,MT-4,antigen,,>99.9%
Cc1cn([C@H]2C[C@H](N=[N+]=[N-])[C@@H]([C@@H](C)O)O2)c(=O)[nH]c1=O,200 µg/mL,,MT-4,cytopathic effect / trypan blue,IIIB,0%
CCCCCCCCCC(O)CC(=O)O,70.8 µg/mL,,HeLa37,antigen,,90%
CCCCCCCCCCCCCCCCOP(=O)(OCCO[C@@H]1O[C@H](CO)[C@@H](O)[C@H](O)[C@@H]1O)OC[C@H]1O[C@@H](n2cc(C)c(=O)[nH]c2=O)C[C@@H]1N=[N+]=[N-],1 µM,22 d,CEM,RT activity,LAV-Bru,0%

Neighbouring rows are from separate reports. An empty or dashed field is not shown.